# Source: US20100003740A1, “CHEMICALLY DEFINED CULTURE MEDIUM FOR NEISSERIA” (priority 2006, published 2010)
# System: N. gonorrhoeae
# Test: MIC determination by macrobroth dilution in the medium compared with E-test strips on chocolate agar (Example 5, FIG. 6)
# Assay type: cell-based
# Conditions: 8 strains of N. gonorrhoeae; susceptible, intermediate or resistant by published breakpoints
row,SMILES,percentage of strains allocated to same susceptibility category by both methods [percentage]
1,CC1(C)S[C@@H]2[C@H](NC(=O)[C@H](N)c3ccc(O)cc3)C(=O)N2[C@H]1C(=O)O [amoxicillin],87.5
2,CC1(C)S[C@@H]2[C@H](NC(=O)Cc3ccccc3)C(=O)N2[C@H]1C(=O)O [benzylpenicillin],75
3,CO/N=C(\C(=O)N[C@@H]1C(=O)N2C(C(=O)O)=C(CSc3nc(=O)c(=O)[nH]n3C)CS[C@H]12)c1csc(N)n1 [ceftriaxone],100
